Test results: patent US20190330275A1 (priority 2016, published 2019)
Read-outs that look alike come from different tables or passages of the source.

By UniProt entry, the sequences of proteins in these tests, tags left out. Residues count along the entry.
UniProt P04757, 26-499 limits assumed: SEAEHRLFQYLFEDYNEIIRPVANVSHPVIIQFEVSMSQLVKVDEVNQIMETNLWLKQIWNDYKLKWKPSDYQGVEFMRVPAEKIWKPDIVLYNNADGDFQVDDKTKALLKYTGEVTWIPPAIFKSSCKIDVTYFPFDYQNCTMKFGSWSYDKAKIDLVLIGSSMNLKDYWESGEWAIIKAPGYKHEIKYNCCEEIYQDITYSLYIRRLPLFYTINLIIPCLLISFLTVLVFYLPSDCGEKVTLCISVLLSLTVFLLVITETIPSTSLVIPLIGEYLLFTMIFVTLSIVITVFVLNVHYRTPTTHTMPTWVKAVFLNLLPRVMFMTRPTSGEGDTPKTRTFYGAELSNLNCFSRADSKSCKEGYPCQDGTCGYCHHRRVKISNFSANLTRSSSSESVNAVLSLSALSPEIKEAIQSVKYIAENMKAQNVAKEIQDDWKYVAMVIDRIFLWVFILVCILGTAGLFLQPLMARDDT
UniProt P04757, whole entry, looked up: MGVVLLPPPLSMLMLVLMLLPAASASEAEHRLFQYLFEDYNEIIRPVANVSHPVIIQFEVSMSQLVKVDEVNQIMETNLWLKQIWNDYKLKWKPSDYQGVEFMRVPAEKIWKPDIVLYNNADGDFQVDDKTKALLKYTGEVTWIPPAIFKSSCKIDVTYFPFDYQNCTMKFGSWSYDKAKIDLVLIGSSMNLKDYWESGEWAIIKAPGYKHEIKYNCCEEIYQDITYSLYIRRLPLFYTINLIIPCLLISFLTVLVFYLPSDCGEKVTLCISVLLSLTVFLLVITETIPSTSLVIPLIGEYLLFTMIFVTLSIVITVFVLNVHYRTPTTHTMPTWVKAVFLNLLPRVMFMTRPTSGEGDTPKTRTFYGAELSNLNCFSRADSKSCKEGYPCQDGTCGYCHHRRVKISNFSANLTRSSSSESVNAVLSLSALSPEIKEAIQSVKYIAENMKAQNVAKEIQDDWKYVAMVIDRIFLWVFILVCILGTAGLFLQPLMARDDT
UniProt P12392, 21-495 limits assumed: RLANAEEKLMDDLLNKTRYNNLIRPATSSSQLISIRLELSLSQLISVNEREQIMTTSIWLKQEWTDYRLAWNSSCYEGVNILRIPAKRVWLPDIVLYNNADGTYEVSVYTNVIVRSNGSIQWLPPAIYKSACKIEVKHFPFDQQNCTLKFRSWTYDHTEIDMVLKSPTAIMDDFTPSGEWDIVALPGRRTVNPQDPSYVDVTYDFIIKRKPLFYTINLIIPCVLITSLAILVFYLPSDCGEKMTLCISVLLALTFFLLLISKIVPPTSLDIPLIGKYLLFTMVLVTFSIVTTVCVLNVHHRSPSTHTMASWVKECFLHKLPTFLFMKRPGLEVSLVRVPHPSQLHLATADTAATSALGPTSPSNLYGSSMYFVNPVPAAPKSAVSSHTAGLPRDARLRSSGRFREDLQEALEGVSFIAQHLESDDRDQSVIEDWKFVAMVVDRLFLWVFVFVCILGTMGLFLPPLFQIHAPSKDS
UniProt P12392, whole entry, looked up: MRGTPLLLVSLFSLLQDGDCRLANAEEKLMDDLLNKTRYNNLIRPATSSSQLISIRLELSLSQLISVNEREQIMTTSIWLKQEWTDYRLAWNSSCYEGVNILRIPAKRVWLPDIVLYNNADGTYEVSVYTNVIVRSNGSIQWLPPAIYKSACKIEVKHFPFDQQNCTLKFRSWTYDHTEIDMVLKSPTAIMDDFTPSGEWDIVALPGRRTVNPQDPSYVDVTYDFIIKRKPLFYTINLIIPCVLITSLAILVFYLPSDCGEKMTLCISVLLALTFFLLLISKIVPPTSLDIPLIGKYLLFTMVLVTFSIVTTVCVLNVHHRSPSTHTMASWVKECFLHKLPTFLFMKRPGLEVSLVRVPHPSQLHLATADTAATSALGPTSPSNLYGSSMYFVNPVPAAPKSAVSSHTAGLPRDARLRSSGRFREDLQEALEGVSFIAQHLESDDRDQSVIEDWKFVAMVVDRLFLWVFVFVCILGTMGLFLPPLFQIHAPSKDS
UniProt P43143, whole entry, looked up: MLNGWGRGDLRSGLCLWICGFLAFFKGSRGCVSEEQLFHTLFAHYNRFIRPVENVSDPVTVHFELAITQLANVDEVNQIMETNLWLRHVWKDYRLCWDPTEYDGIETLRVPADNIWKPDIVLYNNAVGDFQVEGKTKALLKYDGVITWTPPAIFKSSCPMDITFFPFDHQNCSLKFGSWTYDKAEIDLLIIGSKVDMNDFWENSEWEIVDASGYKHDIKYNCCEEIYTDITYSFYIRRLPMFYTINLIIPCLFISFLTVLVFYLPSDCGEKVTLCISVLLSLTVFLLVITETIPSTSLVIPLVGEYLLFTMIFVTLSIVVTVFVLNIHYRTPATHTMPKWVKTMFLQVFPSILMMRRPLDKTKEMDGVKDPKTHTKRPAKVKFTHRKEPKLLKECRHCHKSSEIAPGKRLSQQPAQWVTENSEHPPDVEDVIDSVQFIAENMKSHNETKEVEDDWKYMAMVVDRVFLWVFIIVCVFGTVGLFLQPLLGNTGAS

Columns and labels:
[1] = target: rat α3β4 nAChR (Rattus norvegicus, UniProt P04757+P12392); details: for α3β4 IC50 ratio: IC50 of TxID mutant to α3β4 nAChR / IC50 of wild-type TxID to α3β4 nAChR
[2] = target: rat α6/α3β4 nAChR (Rattus norvegicus, UniProt P04757+P12392+P43143); details: for α6/α3β4 IC50 ratio: IC50 of TxID mutant to α6/α3β4 nAChR / IC50 of wild-type TxID to α6/α3β4 nAChR; for IC50 ratio of α6/α3β4 vs. α3β4 (Discrimination): IC50 of each peptide to α6/α3β4 nAChR / its IC50 to α3β4 nAChR

Structure (SMILES) | decrease of blocking (binding) activity to α3β4 nAChR in comparison with wild type TxID [1] | α3β4 IC50 ratio [1] | α6/α3β4 IC50 ratio [2] | IC50 ratio of α6/α3β4 vs. α3β4 (Discrimination) [2] | decrease of blocking (binding) activity to α6/α3β4 nAChR in comparison with wild type TxID [2] | decrease of blocking (binding) activity to α6/α3β4 nAChR in comparison with wild type TxID ([2]; listed as TxID [G1A])
CC[C@H](C)[C@@H]1NC(=O)[C@H](C)NC(=O)[C@H](CO)NC(=O)[C@@H]2CSSC[C@H](NC(=O)CN)C(=O)N[C@@H](CSSC[C@@H](C(N)=O)NC(=O)[C@H]([C@@H](C)CC)NC(=O)[C@@H]3CCCN3C(=O)[C@H](CO)NC1=O)C(=O)N[C@@H](CO)C(=O)N[C@@H](Cc1c[nH]cn1)C(=O)N1CCC[C@H]1C(=O)N[C@@H](C(C)C)C(=O)N2 [TxID[M11I]] | 20 times | 20.6 | 1.5 | 0.7 | – | –
CC[C@H](C)[C@@H]1NC(=O)[C@@H]2CCCN2C(=O)[C@H](CO)NC(=O)[C@H](CCSC)NC(=O)[C@H](C)NC(=O)[C@H](CO)NC(=O)[C@@H]2CSSC[C@H](NC(=O)[C@H](C)N)C(=O)N[C@@H](CSSC[C@@H](C(N)=O)NC1=O)C(=O)N[C@@H](CO)C(=O)N[C@@H](Cc1c[nH]cn1)C(=O)N1CCC[C@H]1C(=O)N[C@@H](C(C)C)C(=O)N2 [TxID[G1A]] | 17 times | 17.0 | 8.2 | 4.5 | 8.2 times | 8 times
